Results of unrelated studies side by side (data: NIAID ChemDB).

Shared fields: growth or infection tests

An empty or dashed field is not shown.

compound	strain or isolate	cells	read-out	tested at	agent	result
NC1CC2CC1C1CCCC21	H2N2 A/Singapore/1/57	MDCK	inhibition	1 µg/mL	Influenza A virus	100%
NC(=O)c1ncn([C@@H]2O[C@H](CO)[C@@H](O)[C@H]2O)n1		VERO	EC50		Yellow fever virus	32 µg/mL
CCCCCCCCCCCCCCNc1nc(=O)c2ncn([C@@H]3O[C@H](CO)[C@@H](O)[C@H]3O)c2c(=O)[nH]1		HepG2.2.15	EC50		Japanese encephalitis virus	10–15 µM
CO[C@H]1O[C@H](CO)[C@@H](O)[C@@H](OC)[C@@H]1n1cnc(C(C)=O)n1			EC50		Yellow fever virus	>64 µg/mL
c1ccc(N=Nc2ccccc2)cc1		VERO	EC50		Junin virus	19.7 µM
NC12CC3CC(CC(C3)C1)C2	H2N2 Takathuki/4/65	MDCK	EC50		Influenza A virus	0.19 µg/mL
Nc1ccn(C[C@H]2COP(=O)(O)CO2)c(=O)n1		3T3	EC50		Monkeypox virus	19 µM
NC(=O)c1csc([C@@H]2O[C@H](CO)[C@@H](O)[C@H]2O)n1	Asibi	VERO	EC50		Yellow fever virus	9.2 µg/mL
Nc1nc(F)nc2c1ncn2[C@@H]1C=C(CCO)[C@@H](O)[C@H]1O		E6SM	EC50		Vaccinia virus	0.1 µg/mL
NC(=O)c1ncn([C@@H]2O[C@H](CO)[C@@H](O)[C@H]2O)n1	Nakayama	VERO 76	EC50		Japanese encephalitis virus	65 µg/mL
Nc1ccn(C[C@@H](CO)OCP(=O)(O)O)c(=O)n1	Copenhagen	HFF	EC50		Vaccinia virus	46.2 µM
Nc1nc(=O)c2ncn(COCCO)c2c(=O)[nH]1		HepG2.2.15	EC50		Japanese encephalitis virus	>500 µM
Nc1ccn([C@H]2CC[C@@H](CO)O2)c(=O)n1		HFF	EC50		Cowpox virus	>474 µM
Nc1ncnc2c1ncn2[C@H]1C[C@H](O)[C@@H](COP([O-])(=S)O[C@H]2C[C@H](n3ccc(=O)[nH]c3=O)O[C@@H]2CO)O1			EC50		Yellow fever virus	>50 µM
CCCCCCCCCCN1[C@H](CN)[C@@H](O)[C@H](O)[C@H]1CO			EC50		Japanese encephalitis virus	>10 µM
CCCCCCCCCCCCCCCCOCCCOP(=O)(O)CO[C@H](CO)Cn1ccc(N)nc1=O	NYC	HFF	EC50		Vaccinia virus	0.4 µM
Nc1nc(=O)c2ncn(COCCOCc3ccccc3)c2c(=O)[nH]1		HepG2.2.15	EC50		Japanese encephalitis virus	100 µM
Nc1ccn(C[C@H]2COP(=O)(O)CO2)c(=O)n1	IHD	HFF	EC50		Vaccinia virus	10.9 µM
O=c1cnn([C@@H]2O[C@H](CO)[C@@H](O)[C@H]2O)c(=O)[nH]1	Nakayama	VERO	EC90		Japanese encephalitis virus	0.8 µg/mL
CCCCCCCCCCCCCCCCOCCCOP1(=O)CO[C@@H](Cn2ccc(N)nc2=O)CO1	WR	HFF	EC50		Vaccinia virus	5.8 µM
CN(C)C(=O)/N=N/C(=O)N(C)C		VERO	EC50		Junin virus	>100 µM
NC(=O)c1ncn(C2OC(CO)C3OC32)n1			EC50		Rift valley fever virus	149 µg/mL
Nc1ccn(C[C@@H](CO)OCP(=O)(O)O)c(=O)n1		BSC	EC50		Variola virus	8 µM
O=c1[nH]c(=O)n([C@H]2C[C@H](O)[C@@H](CO)O2)cc1I		PRK	EC50		Vaccinia virus	0.3 µg/mL
NC(=O)c1ncn([C@H]2CC[C@@H](CO)O2)n1			EC50		Rift valley fever virus	101 µg/mL
COc1c(C)c2c(c(O)c1C/C=C(\C)CCC(=O)O)C(=O)OC2	Zaire strain wild-type	VERO 76	EC50		Monkeypox virus	2.5 µM
O=C1Nc2nc[nH]c2C(=O)N(Cc2ccccc2)N1		HepG2.2.15	EC50		Japanese encephalitis virus	>500 µM
CCCCCCCCCCCCCCCCCCOCCOP1(=O)CO[C@@H](Cn2ccc(N)nc2=O)CO1	IHD	HFF	EC50		Vaccinia virus	0.04 µM
O=C1Nc2ncn(Cc3ccccc3)c2C(=O)N(Cc2ccccc2)N1		HepG2.2.15	EC50		Japanese encephalitis virus	>500 µM
CC1=C[C@H]2O[C@@H]3C[C@H]4OC(=O)/C=C\C=C\C(=O)OCC[C@@H](C)[C@H](O)C(=O)OC[C@@]2(CC1)[C@]4(C)[C@]31CO1		VERO	EC50		Junin virus	0.0049 µg/mL
O=c1cnn([C@@H]2O[C@H](CO)[C@@H](O)[C@H]2O)c(=O)[nH]1		3T3	EC50		Camelpox virus	4.5 µM
C=C(Cl)c1cn([C@H]2C[C@H](O)[C@@H](CO)O2)c(=O)[nH]c1=O		PRK	EC50		Vaccinia virus	0.7 µg/mL
Nc1nc(=O)c2[nH]cnc2c(=O)[nH]1		HepG2.2.15	EC50		Japanese encephalitis virus	>500 µM
O=c1[nH]c(=O)n([C@H]2C[C@H](O)[C@@H](CO)O2)cc1F		PRK	EC50		Vaccinia virus	0.1 µg/mL
CCCCCCCCCCCCNc1nc(=O)c2ncn([C@H]3C[C@H](O)[C@@H](CO)O3)c2c(=O)[nH]1		HepG2.2.15	EC50		Japanese encephalitis virus	5–10 µM
OC(Cn1ccnc1)C12CC3CC(CC(C3)C1)C2	H2N2 A/Singapore/1/57	MDCK	inhibition	1 µg/mL	Influenza A virus	100%
CO[C@H]1O[C@H](CO)[C@@H](O)[C@@H](O)[C@@H]1n1cnc(C(C)=O)n1			EC50		Yellow fever virus	>64 µg/mL
Nc1ccn(C[C@H]2COP(=O)(O)CO2)c(=O)n1	Somalia wild type	VERO 76	EC50		Camelpox virus	2.2 µM
CCCCCCCCCCCCNc1nc(=O)c2ncn([C@@H]3C[C@H](O)[C@@H](CO)O3)c2c(=O)[nH]1		HepG2.2.15	EC50		Japanese encephalitis virus	300 µM
C1[NH2+]C2CC3CC1CC(C3)C2	H2N2 A/Singapore/1/57	MDCK	inhibition	1 µg/mL	Influenza A virus	100%
COc1cc(NC(=O)Nc2cccc(CNC(=O)O[C@H]3CCOC3)c2)ccc1-c1cnco1		VERO	EC50		Venezuelan equine encephalitis virus	19.2 µM
Nc1ncnc2c1ncn2[C@H]1C[C@H](F)[C@@H](CO)O1		VERO	EC50		Venezuelan equine encephalitis virus	5.3 µM
CC1=CC2O[C@H]3C[C@H]4OC(=O)/C=C\C=C\[C@H](C(C)O)OCC/C(C)=C/C(=O)OCC2(CC1)[C@@]4(C)[C@]31CO1		VERO	EC50		Junin virus	0.0031 µg/mL
Nc1ccn([C@@H]2C[C@H](CO)[C@@H](O)[C@H]2O)c(=O)n1		PRK	EC50		Vaccinia virus	15 µg/mL
NC(=O)c1ncn([C@@H]2O[C@H](CO)[C@@H](O)[C@H]2O)n1	Somalia wild type	VERO 76	EC50		Camelpox virus	290 µM

The last 4 rows once more:

Nc1ncnc2c1ncn2[C@H]1C[C@H](F)[C@@H](CO)O1 ; cells: VERO ; read-out: EC50 ; agent: Venezuelan equine encephalitis virus ; result: 5.3 µM
CC1=CC2O[C@H]3C[C@H]4OC(=O)/C=C\C=C\[C@H](C(C)O)OCC/C(C)=C/C(=O)OCC2(CC1)[C@@]4(C)[C@]31CO1 ; cells: VERO ; read-out: EC50 ; agent: Junin virus ; result: 0.0031 µg/mL
Nc1ccn([C@@H]2C[C@H](CO)[C@@H](O)[C@H]2O)c(=O)n1 ; cells: PRK ; read-out: EC50 ; agent: Vaccinia virus ; result: 15 µg/mL
NC(=O)c1ncn([C@@H]2O[C@H](CO)[C@@H](O)[C@H]2O)n1 ; strain or isolate: Somalia wild type ; cells: VERO 76 ; read-out: EC50 ; agent: Camelpox virus ; result: 290 µM

Conditions beyond the fields shown may differ between rows. ECn is the concentration giving n% inhibition of infection, replication or growth. a–b is a range or a potency band. Inhibition is in % at the dose shown (toxicity tests: loss of growth or viability).